Measurements as given in patent US8188011B1, “Optimization of ligand affinity for RNA targets using mass spectrometry” (Isis Pharmaceuticals, Inc., priority 2000, dated 2012).

Tested on: 16S ribosomal RNA fragment (27mer RNA, SEQ ID NO:1)
Assay: Collisionally activated dissociation (CAD) MS/MS of ligand:16S complexes, LCQ ion trap

## N[C@@H]1C[C@H](N)[C@@H](O)C(O)[C@H]1O (stereo partly shown) [2-DOS, 2-deoxystreptamine]
CAD of ions at m/z 1758.9
  E50 (voltage yielding 50% dissociation) of 2-DOS:16S complex: 1.13 V
CAD of ions at m/z 1791.4
  E50 of bis-(2-DOS):16S complex: 1.13 V
MS/MS/MS experiment
  E50 of (2-DOS):16S complex generated from bis-(2-DOS):16S complex: 1.17 V
  voltage at which complete dissociation of (2-DOS):16S ions generated from bis-(2-DOS):16S complex occurred: 1.3 V
